# Potato spindle tuber viroid, stem 15: variant abundance in plants

The pool varies stem 15 of the PSTVd intermediate strain in the pattern CUGGAGCGAUNGNNUNNG; wild type is CUGGAGCGAUCGCUUCGG (upper and lower strand joined, each 5' to 3', the first 9 letters being the upper strand).

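Three N. benthamiana plants were inoculated with the whole mutant pool. Samples came from the inoculated region at 5 days, the leaf margin at 10 and upper systemic leaves at 12.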

Values are reads per thousand in the sample; higher means more abundant, 0 means not found. Each value is the mean of three plants. "Pool" is the share in the plasmid pool used as inoculum, on the same scale. The inoculated region was read from the minus strand, the other sites from the plus strand. IR is the inoculated region, LM the leaf margin, Sys the systemic leaves. Wild type was 10.2 per thousand in the pool and the most common sequence in every sample (inoculated region 285, 367, 312; leaf margin 785, 865, 782; systemic leaves 854, 898, 915). The authors trace changes outside the varied positions to PCR and sequencing errors or to mutation in the plant; presence does not show that a variant is infectious alone. With 36,693-63,082 reads a sample, very low values are single reads.

CUGGAGCGAUAGCAUUAG (pool 0.970) gave IR 0.320; LM 0.0350; Sys 0.
CUGGAGCGAUAGCGUCAG (pool 0.857) gave IR 0.298; LM 0.0670; Sys 0.
CUGGAGCGAUUGAAUGAG (pool 1.08) gave IR 0.523; LM 0.0701; Sys 0.
CUGGAGCGAUCGACUGCG (pool 0.824) gave IR 0.242; LM 0.0282; Sys 0.
CUGGAGCGAUGGGAUAAG (pool 0.857) gave IR 0.228; LM 0.0106; Sys 0.
CUGGAGCGAUGGCUUUAG (pool 1.07) gave IR 0.583; LM 0.0320; Sys 0.
CAGGAGCGAUCGCCUCCG (pool 0.0162) gave IR 0; LM 0; Sys 0.
CUGGAGCGAUUGUUUAGG (pool 1.03) gave IR 0.580; LM 0.0276; Sys 0.
CUGGAGCGAUAGGGUAAG (pool 1.00) gave IR 0.233; LM 0.0525; Sys 0.
CUGGAGCGAUGGAGUUGG (pool 0.711) gave IR 0.277; LM 0.0260; Sys 0.
CUGGAGCGAUAGACUAGG (pool 0.921) gave IR 0.319; LM 0.0182; Sys 0.
CUGGAGCGAUAGCAUAUG (pool 0.776) gave IR 0.251; LM 0.0260; Sys 0.
CUGGAGCGAUUGGAUAUG (pool 0.646) gave IR 0.402; LM 0.0160; Sys 0.
CUGGAGCGAUUGUUUAAG (pool 0.824) gave IR 1.44; LM 0.360; Sys 0.
CUGGAGCGAUGGAUUUAG (pool 0.986) gave IR 0.295; LM 0.0592; Sys 0.
CUGGAGCGAUCGGGUCAG (pool 1.02) gave IR 0.256; LM 0.0394; Sys 0.
CUGGAGCGAUAUUUUCGG (pool 0.0162) gave IR 0; LM 0; Sys 0.
CUGGAGCGAUAGUCUUCG (pool 0.760) gave IR 1.49; LM 0.0265; Sys 0.
CUGGAGCGAUUGGGUGUG (pool 0.743) gave IR 0.302; LM 0.0106; Sys 0.
CUGGAGCGAUGGGUUCCG (pool 1.12) gave IR 0.353; LM 0.00528; Sys 0.
CUGGAGCGAUAGAUUGGG (pool 0.905) gave IR 0.244; LM 0.0251; Sys 0.
CUGGAGCGAUGGUAUUAG (pool 0.937) gave IR 1.64; LM 0.457; Sys 0.350.
CUGGAGCGAUGGCAUACG (pool 1.00) gave IR 0.341; LM 0.0394; Sys 0.
CUGGAGCGAUGGCGUCCG (pool 0.776) gave IR 0.255; LM 0.0397; Sys 0.
CUGGAGCGAUUGAAUCUG (pool 0.711) gave IR 0.258; LM 0.0425; Sys 0.
CUGGAGCGAUAGGAUUUG (pool 0.857) gave IR 0.313; LM 0.0244; Sys 0.
CUGGAGCGAUUGACUCGG (pool 1.36) gave IR 0.965; LM 0.0447; Sys 0.
CUGGAGCGAUCUCUUCGG (pool 0.0646) gave IR 0.310; LM 0.295; Sys 0.667.

Data from the supplement of Wu et al. 2024, doi:10.1371/journal.ppat.1012142.